Our source for the Km, kcat and kcat/Km values is article PMC12077149, “Evolution of PqsE as a Pseudomonas aeruginosa-specific regulator of LuxR-type receptors: insights from Pseudomonas and Burkholderia” (mBio, 2025).

The subject of series [1] is CC(=O)CC(=O)SCCNC(=O)CCNC(=O)[C@H](O)C(C)(C)COP(=O)(O)OP(=O)(O)OC[C@H]1O[C@@H](n2cnc3c(N)ncnc32)[C@H](O)[C@@H]1OP(=O)(O)O. Put plainly: purified protein. The following applies: 0.1 M Tris-HCl pH 8.0, 2 mM DTNB; 2 µM enzyme; substrate up to 1 mM; pH 8.0.
Series [2] relates to CCCC(=O)Oc1ccc2c(C)cc(=O)oc2c1. Put plainly: purified protein. Conditions: 50 mM Tricine, 0.01% Triton X-100; 2 µM enzyme; substrate up to 8 µM.

For the substance “PqsE (Pseudomonas aeruginosa UCBPP-PA14; R243A/R246A/R247A)”, in series [1], the Michaelis-Menten constant (Km) (in general, the concentration of substrate that gives half-maximal velocity) came to 2900 ± 200 µM; the kcat (in general, the number of substrate molecules converted per active site and unit of time at saturation) turned out to be 0.35 s⁻¹; the kcat/Km (commonly the turnover number divided by the Michaelis constant) amounted to 120 M⁻¹ s⁻¹. Also, in series [2], the Km is recorded as 2.2 ± 0.2 µM, the kcat amounted to 0.0562 s⁻¹ and the kcat/Km was determined as 26000 M⁻¹ s⁻¹.
